Article PMC13635753, “Mechanism of NanR transcriptional activation of sialic acid metabolism in Streptococcus pneumoniae” (Nucleic Acids Research, 2025)

Molecular target: T1, SpNanR (Streptococcus pneumoniae) (UniProt A0A0H2ZPE9)
T1 sequence (looked up): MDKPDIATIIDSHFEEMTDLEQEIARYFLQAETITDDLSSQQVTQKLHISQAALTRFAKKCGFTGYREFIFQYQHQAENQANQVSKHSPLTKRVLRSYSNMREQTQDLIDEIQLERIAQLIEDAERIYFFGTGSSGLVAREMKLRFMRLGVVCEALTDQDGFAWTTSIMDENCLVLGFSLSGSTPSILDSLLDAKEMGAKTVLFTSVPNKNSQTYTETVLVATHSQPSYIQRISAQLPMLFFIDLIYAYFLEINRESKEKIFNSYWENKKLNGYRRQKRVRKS
Assay: fluorescence-detection AUC (sedimentation velocity)
Details: 2 mM ManNAc-6-P, Hill n 2.0; AUC: 50 nM FAM-DNA, 0.019-5 uM SpNanR; recombinant protein; residues 1-283; label: 5'-FAM on sense strand

**Q.** How did the Kd turn out when “TCTGAAAGTACTTTTAGA (double strand) [nanE recognition sequence (site 2), FAM]” was run?
**A.** 549 nM

For at least one entry, the source does not settle the construct or the ends of the probe. Protein sequences can lack the tags named with them.
